Patent publication US20260191850A1, “USE OF 8-HYDROXYQUINOLINE DERIVATIVE” (Jiangsu Yahong Meditech Co., Ltd., priority 2022, published 2026)

Experiments:
Format in all cases: cell-based
[1] = tested on: Human Papillomavirus 11 (HPV11); assay: Transient transfection HPV replication assay (E1/E2 plasmids, NanoLuc reporter), HPV11; conditions: SI50=CC50/EC50, HPV11 strain HE611260.1, C-33 A cells
Procedure: The antiviral activity of 7-nitro-8-hydroxyquinoline derivatives against human papillomavirus (HPV) was tested and evaluated using transient transfection assays. This evaluation system included plasmids expressing viral helicase E1 and replication origin binding protein E2, plasmids containing NanoLuc gene of which the expression was driven by a TK promoter (Promega company), and replication origin sequences of human papillomavirus strains listed below. […] The positions of replication origin sequences of the three NanoLuc reporter plasmids were 7825-7993:1-99, 7662-7901:1-99, and 7740-7837:1-102 for HPV-11 (NCBI Accession No. HE611260.1), HPV-16 (NCBI Accession No. KP212151.1), and HPV-18 (NCBI Accession No. KC470230.1), respectively. The positions of E1 open reading frame (ORF) sequences corresponding to HPV-11, HPV-16 and HPV-18 were 832-2781, 864-2813 and 914-2887 in the same sequences, respectively. The positions of E2 open reading frame (ORF) sequences corresponding to HPV-11, HPV-16 and HPV-18 were 2723-3826, 2755-3852 and 2817-3908 in the same sequences, respectively. The cells used for transient transfection were C-33A cells (ATCC HTB-31), and the culture medium was DMEM supplemented with Earle's salt, L-glutamine and 2% fetal bovine serum. In the experiment, the NanoLuc expression plasmid (5 ng/well) was co-transfected with the E1 and E2 expression plasmids of the homologous virus by using Lipofectamine LTXL and Plus Reagent (Invitrogen product, Thermo Fisher Scientific company). […] Meanwhile, the transfected cells were also seeded into duplicated dishes containing the same dilution of test drugs to assess cytotoxicity. All transfected monolayer cells were incubated at 37° C. for 48 hours. The NanoLuc activity expressed by the reporter plasmids was detected with Nano-Glo reagent (Promega company), the cell viability in cytotoxicity plates was measured with CellTiter-Glo reagent (Promega company), and the luminescence intensity was quantified on a microplate reader. The meanings of EC50, CC50, and SI50 were the same as those well-known in the art (where SI50=CC50/EC50), and were not described here. […]

[2] = tested on: Human Papillomavirus 18 (HPV18); assay: Transient transfection HPV replication assay (E1/E2 plasmids, NanoLuc reporter), HPV18; conditions: SI50=CC50/EC50, HPV18 strain KC470230.1, C-33 A cells
Procedure: (§1) The antiviral activity of 7-nitro-8-hydroxyquinoline derivatives against human papillomavirus (HPV) was tested and evaluated using transient transfection assays. This evaluation system included plasmids expressing viral helicase E1 and replication origin binding protein E2, plasmids containing NanoLuc gene of which the expression was driven by a TK promoter (Promega company), and replication origin sequences of human papillomavirus strains listed below. […] The positions of replication origin sequences of the three NanoLuc reporter plasmids were 7825-7993:1-99, 7662-7901:1-99, and 7740-7837:1-102 for HPV-11 (NCBI Accession No. HE611260.1), HPV-16 (NCBI Accession No. KP212151.1), and HPV-18 (NCBI Accession No. KC470230.1), respectively. The positions of E1 open reading frame (ORF) sequences corresponding to HPV-11, HPV-16 and HPV-18 were 832-2781, 864-2813 and 914-2887 in the same sequences, respectively. The positions of E2 open reading frame (ORF) sequences corresponding to HPV-11, HPV-16 and HPV-18 were 2723-3826, 2755-3852 and 2817-3908 in the same sequences, respectively. The cells used for transient transfection were C-33A cells (ATCC HTB-31), and the culture medium was DMEM supplemented with Earle's salt, L-glutamine and 2% fetal bovine serum. In the experiment, the NanoLuc expression plasmid (5 ng/well) was co-transfected with the E1 and E2 expression plasmids of the homologous virus by using Lipofectamine LTXL and Plus Reagent (Invitrogen product, Thermo Fisher Scientific company). […] Meanwhile, the transfected cells were also seeded into duplicated dishes containing the same dilution of test drugs to assess cytotoxicity. All transfected monolayer cells were incubated at 37° C. for 48 hours. The NanoLuc activity expressed by the reporter plasmids was detected with Nano-Glo reagent (Promega company), the cell viability in cytotoxicity plates was measured with CellTiter-Glo reagent (Promega company), and the luminescence intensity was quantified on a microplate reader. The meanings of EC50, CC50, and SI50 were the same as those well-known in the art (where SI50=CC50/EC50), and were not described here.
(§2) J Med Chem. 2016; 59 (23): 10470-8. • Kachaeva, M. et al. In vitro activity of novel 1,3-oxazole derivatives against HPV. Ibnosina J Med Biomed Sci. 2017; 9 (4): 111-8.

[3] = tested on: Human Papillomavirus 16 (HPV16); assay: Transient transfection HPV replication assay (E1/E2 plasmids, NanoLuc reporter), HPV16; conditions: SI50=CC50/EC50, HPV16 strain KP212151.1, C-33 A cells
Procedure: as §1, §2

In the case of O=[N+]([O-])c1ccc2c(NC3COC3)ccnc2c1O [Example 19, 7-nitro-4-(3-oxetanylamino)quinolin-8-ol], the SI50 [1] is reported as 8.

Work on O=[N+]([O-])c1ccc2c(C3CCCCC3)ccnc2c1O [Compound 32, 4-cyclohexyl-7-nitroquinolin-8-ol] yielded an SI50 [2] of over 245, an SI50 [1] of over 112 and an SI50 [3] of 218.

Nc1nc2c(ncn2CCOCP(=O)(O)O)c(=O)[nH]1 [Positive control drug, 9-[2-(phosphonylmethoxy)ethyl]guanine, reference compound] showed an SI50 [2] of over 68, an SI50 [1] of over 119 and an SI50 [3] of over 73.

Cl.O=[N+]([O-])c1cc(Cl)c2c(C(F)(F)F)ccnc2c1O [Compound 73, 5-chloro-7-nitro-4-(trifluoromethyl)-quinolin-8-ol hydrochloride] was tested, and the SI50 [1] was 137 and the SI50 [3] was 119.

In the case of O=[N+]([O-])c1c(Cl)c(F)c2cccnc2c1O [Compound 123, 6-chloro-5-fluoro-7-nitroquinolin-8-ol], the SI50 [1] is reported as under 5.

N#Cc1c(Cl)c(Cl)c2cccnc2c1O [Compound 133, 5,6-dichloro-7-cyano-8-hydroxyquinoline] gave an SI50 [1] of under 5.

Compound “4-methoxy-7-nitroquinolin-8-ol [Example 21]” has an SI50 [1] of under 4.

O=[N+]([O-])c1cc(Cl)c2c(Cl)ccnc2c1O [Compound 29, 4,5-dichloro-7-nitroquinolin-8-ol] gave an SI50 [1] of 3.

O=[N+]([O-])c1ccc2c(Cl)c(C3CC3)cnc2c1O [Compound 74, 4-chloro-3-cyclopropyl-7-nitroquinolin-8-ol] showed an SI50 [2] of over 1271, an SI50 [1] of 60 and an SI50 [3] of 369.

O=[N+]([O-])c1ccc2c(C(F)(F)F)ccnc2c1O [Compound 62, 7-nitro-4-trifluoromethylquinolin-8-ol] was tested, and the SI50 [1] was under 5.

In the case of CN(C)C(=O)N1CCN(c2ccnc3c(O)c([N+](=O)[O-])ccc23)CC1 [Example 25, 4-(8-hydroxy-7-nitroquinolin-4-yl)-N,N-dimethylpiperazine-1-carboxamide], the SI50 [2] is reported as 59, the SI50 [1] is reported as over 70 and the SI50 [3] is reported as 84.

Compound Cc1cc(C#N)c(O)c2ncccc12 [Compound A1] has an SI50 [1] of under 3.

With O=[N+]([O-])c1c(Br)c(Cl)c2cccnc2c1O [Compound 114, 6-bromo-5-chloro-7-nitroquinolin-8-ol] the SI50 [1] was under 5.

Compound CNc1c([N+](=O)[O-])c(O)c2ncccc2c1Cl [Compound 7, 5-chloro-6-(methylamino)-7-nitroquinolin-8-ol] has an SI50 [1] of 4.

O=[N+]([O-])c1ccc(O)c2ncccc12 [Compound A2, 5-nitro-8-hydroxyquinoline, reference compound] gave an SI50 [2] of 64, an SI50 [1] of 53 and an SI50 [3] of 23.

O=[N+]([O-])c1ccc2c(C3CCCCC3)ccnc2c1O [Example 32, 4-cyclohexyl-7-nitroquinolin-8-ol] was tested, and the SI50 [1] was over 38.

Cc1ccnc2c(O)c(C#N)cc(Cl)c12 [Compound 131, 4-methyl-5-chloro-7-cyano-8-hydroxyquinoline] showed an SI50 [2] of 85, an SI50 [1] of 10 and an SI50 [3] of 24.

O=[N+]([O-])c1c(Cl)c(Cl)c2cccnc2c1O [Compound 115, 5,6-dichloro-7-nitroquinolin-8-ol] gave an SI50 [1] of under 4.
